Compound potency records, mixed from different reports. Data source: NIAID ChemDB in PubChem.

Shared fields: growth or infection tests; organism: Candida albicans; read-out: MIC

An empty or dashed field is not shown. Neighbouring rows are from separate reports.

smiles | strain or isolate | cell line | value
CCCCCOc1ccc(-c2ccc(-c3ccc(C(=O)N[C@H]4CCCNC(=O)C5C[C@H](N)CN5C(=O)C(C(C)O)NC(=O)C(OCc5ccccc5)NC(=O)C5CC(O)CN5C(=O)C(C(C)O)NC4=O)cc3)cc2)cc1 | ATCC CCH442 |  | 1.56 µg/mL
Cc1c(O)cccc1C(=O)N[C@@H](CSc1ccccc1)[C@H](O)CN1C[C@H]2CCCC[C@H]2C[C@H]1C(=O)NC(C)(C)C | I109A |  | >64 µg/mL
Cc1c(S(=O)(=O)c2ccccc2)[n+](=O)c2ccccc2n1[O-] | Clinical isolate 12 |  | 31.25 µg/mL
CCCCCOc1ccc(-c2ccc(-c3ccc(C(=O)N[C@H]4CCCNC(=O)C5C[C@H](NC(=O)NCCN(C)C)CN5C(=O)C(C(C)O)NC(=O)C(CCc5ccc(O)cc5)NC(=O)C5C[C@@H](O)CN5C(=O)C(C(C)O)NC4=O)cc3)cc2)cc1 | ATCC CCH442 |  | 0.39 µg/mL
Cc1c(Sc2ccccc2)[n+](=O)c2cc(Cl)ccc2n1[O-] | Clinical isolate 1 |  | 31.25 µg/mL
CC1=C(CCO)C(=O)C(O)=C2C1=CC(=O)[C@@H]1C(C)(C)CCC[C@@]21C |  | VERO | 0.78 µg/mL
C[C@H]1[C@H](O)[C@@H](C)/C=C/C=C/C=C/C=C/C=C/C=C/C=C/[C@H](O[C@@H]2O[C@H](C)[C@@H](O)[C@H](N)[C@@H]2O)C[C@@H]2O[C@](O)(C[C@@H](O)C[C@@H](O)CC[C@H](O)[C@@H](O)C[C@@H](O)CC(=O)O[C@H]1C)C[C@H](O)[C@H]2C(=O)O | SGY-243 |  | 0.015 µg/mL
CCCCCOc1ccc(-c2ccc(-c3ccc(C(=O)N[C@H]4CCCNC(=O)[C@@H]5C[C@H](N)CN5C(=O)[C@H]([C@@H](C)O)NC(=O)[C@H](Cc5ccc(O)cc5)NC(=O)[C@@H]5C[C@@H](O)CN5C(=O)[C@H]([C@@H](C)O)NC4=O)cc3)cc2)cc1 | ATCC 62376 |  | 0.2 µg/mL
CN(CCCC#CC(C)(C)C)c1cccc2c1CCC(=O)N2 | Clinical isolate 5 |  | 15.6 µg/mL
O[C@](Cn1cncn1)(Cn1cnc(/C=C/c2ccc(OCC(F)(F)C(F)F)cc2)n1)c1ccc(F)cc1F | Isolate 04-28 |  | 0.12 µg/mL
CCCCCOc1ccc(-c2ccc(-c3ccc(C(=O)N[C@H]4CCCNC(=O)C5C[C@H](N)CN5C(=O)C(CCCN(CCN)CCN)NC(=O)C(CCc5ccc(O)cc5)NC(=O)C5C[C@@H](O)CN5C(=O)C(C(C)O)NC4=O)cc3)cc2)cc1 | ATCC 62376 |  | 0.2 µg/mL
Cc1c(Cl)[n+](=O)c2cc(Cl)ccc2n1[O-] | Clinical isolate 15 |  | 15.6 µg/mL
N=C(N)c1ccc2nc(-c3ccc(-c4nc5ccc(C(=N)N)cc5[nH]4)[nH]3)[nH]c2c1 | Isolate 2281 |  | 0.78 µg/mL
CCCCCCCCON1CCN(c2ccc(-c3ccc(C(=O)N[C@H]4CCCNC(=O)C5C[C@H](N)CN5C(=O)C(C(C)O)NC(=O)C(CCc5ccc(O)cc5)NC(=O)C5C[C@@H](O)CN5C(=O)C(C(C)O)NC4=O)cc3)cc2)CC1 | ATCC 62376 |  | 0.2 µg/mL
Cc1c(Sc2ccccc2)[n+](=O)c2cc(C(F)(F)F)ccc2n1[O-] | Clinical isolate 8 |  | 31.25 µg/mL

2 of the rows above, restated:

smiles,strain or isolate,cell line,value
CC1=C(CCO)C(=O)C(O)=C2C1=CC(=O)[C@@H]1C(C)(C)CCC[C@@]21C,,VERO,0.78 µg/mL
Cc1c(O)cccc1C(=O)N[C@@H](CSc1ccccc1)[C@H](O)CN1C[C@H]2CCCC[C@H]2C[C@H]1C(=O)NC(C)(C)C,I109A,,>64 µg/mL